Reference: PMC12363188 (2025)

Experiments:
[1] = target: T1, SARS-CoV-2 spike ectodomain (Se) (SARS-CoV-2, UniProt P0DTC2 14-1213); test: SPR
[2] = target: T1, SARS-CoV-2 spike ectodomain (Se); test: SPR; remark: listed apart in the source

B1: Rp-bACE2-D31K recombinant protein (protein)
chain: QSITEDKAKKFLNKFNSEAEDLSYQSSLASWDYNTNISDENVQKMDEAGAKWSAFYEEQSKIAKNYPLEEIQTDIVKRQLQILQQSGSPVLSEDKSKRLNSILNAMSTIYSTGKVCKPNNPQECLLLEPGLDNIMGTSKDYHERLWAWEGWRAEVGKQLRPLYEEYVVLKNEMARGYHYEDYGDYWRRDYETEESSGPGYSRDQLMKDVDRIFTEIKPLYEHLHAYVRAKLMDTYPLHISPTGCLPAHLLGDMWGRFWTNLYPLTVPFGQKPNIDVTDEMVKQGWDANRIFKEAEKFFVSVGLPNMTEGFWNNSMLTEPGDGRKVVCHPTAWDLGKGDFRIKMCTKVTMEDFLTAHHEMGHIQYDMAYASQPYLLRNGANEGFHEAVGEVMSLSVATPKHLKTMGLLSPDFREDDETEINFLLKQALNIVGTLPFTYMLEKWRWMVFKGEIPKEEWMKKWWEMKREIVGVVEPVPHDETYCDPASLFHVANDYSFIRYYTRTIFEFQFHEALCRIAQHNGPLHKCDISNSTDAGKKLHQMLSVGKSQAWTKTLEDIVGSRNMDVGPLLRYFKPLYTWLQEQSRKSYVGWNTDWSPYSD
In the case of B1, the koff [1] is reported as 0.0557 s⁻¹ and the Kd [2] is reported as 75.1 nM.
